The test system of this data set is Leishmania (L.) infantum intracellular amastigotes. As to the kind of experiment: Anti-L. (L.) infantum activity in vitro, intracellular amastigotes in peritoneal macrophages, infection index. It counts as cell-based. Conditions: selectivity index: CC50 against NCTC cells/IC50 against amastigotes. As for the experimental part: The synthesized compounds were evaluated for their anti-L. (L.) infantum activity on intracellular amastigotes following 96 h treatment, with standard drug miltefosine used as a control. […] Leishmania (L.) infantum (MHOM/BR/1972/LD) amastigotes were obtained by differential centrifugation from golden hamsters (Mesocricetus auratus) spleens with 60–70 days of infection and the number of parasites was determined by the Stauber method.[18] Murine conjunctive fibroblasts NCTC clone 929 (ATCC) were maintained in RPMI-1640 medium supplemented with 10% FBS at pH 7.2 and 37 °C in a humidified incubator with 5% CO2. Peritoneal macrophages were by obtained by washing the peritoneal cavity of BALB/c mice with RPMI-1640 medium supplemented with 10% FBS, pH 7.2 and maintained at 37 °C in a humidified incubator with 5% CO2. Peritoneal macrophages (1 × 10^5/well) were added in 16-well slide chambers (NUNC) and incubated overnight at 37 °C with 5% CO2. Subsequently, the cells were infected with L. (L.) infantum amastigotes (10 : 1 amastigotes/macrophage) for 24 h, treated with compounds serially diluted (6.25 to 50 μM) and incubated for 96 h at 37 °C with 5% CO2. Miltefosine was used as standard drug and untreated cells as a negative control. Slides were fixed with methanol, stained with Giemsa and observed under a light microscope.[19] […] The determination of CC50 and IC50 values was performed by sigmoid dose–response curves using the Graph Pad Prism 5 software. The samples were tested in duplicate and the assays were reproduced at least twice.

For the compound `C=CCc1cc(OC)c(OCc2ccc(OC)cc2)c(Oc2ccccc2OC)c1` [Compound 9], the SI is on record as more than 8.3.

In the case of `C=CCc1cc(OC)c(OC(C)=O)c(Oc2ccccc2OC)c1` [Compound 11], the SI is reported as more than 6.1.

Take `C=CCc1cc(OC)c(OCc2ccc(OC)cc2)c(Oc2ccc(CN3CCOCC3)cc2OC)c1` [Compound 24]: the SI is reported as more than 20.6.

The compound `CCCc1ccc(Oc2cc(CN3CCOCC3)cc(OC)c2OCc2ccc(OC)cc2)c(OC)c1` [Compound 28] gave an SI of more than 12.2.

As for `CCCc1ccc(Oc2cc(CN3CCOCC3)cc(OC)c2OCc2ccc(C(F)(F)F)cc2)c(OC)c1` [Compound 29], the SI is on record as more than 15.1.

The compound `CCCc1ccc(Oc2cc(CN3CCOCC3)cc(OC)c2OCc2cc(OC)c(OC)c(OC)c2)c(OC)c1` [Compound 30] gave an SI of more than 7.6.

In turn, `CCCc1ccc(Oc2cc(CN3CCOCC3)cc(OC)c2OCc2ccc(OC)cc2)cc1` [Compound 34] returned an SI of more than 13.1.

For the origin of these results see publication PMC10357944 (RSC Medicinal Chemistry, 2023).
